Measured values taken from patent publication EP2196204A1 (priority 2007, dated 2009).

Legend:
DU-145 = test: MTT cell survival assay, prostate cancer cells DU-145 (NCI screening model); type: cell-based, human; details: for IC50: DU-145, 48 hours incubation, MTT; for Cell survival rate: 48 hours
LNCaP = test: MTT cell survival assay, prostate cancer cells LNCaP (NCI screening model); details: 48 hours incubation
A549 = test: MTT cell survival assay, lung cancer cell A549 (NCI anti-cancer agents screen model); details: A549, 48 hours incubation
Hep 3B = test: MTT cell survival assay, hepatic cancer cells Hep 3B (NCI anti-cancer agents screen model); details: Hep3B, 48 hours incubation
Hep G2 = test: MTT cell survival assay, hepatic cancer cells Hep G2 (NCI anti-cancer agents screen model); details: HepG2, 48 hours incubation
[1] = DU-145, concentration 0.001 ng/ml
[2] = DU-145, concentration 0.01 ng/ml
[3] = DU-145, concentration 0.1 ng/ml
[4] = DU-145, concentration 100 ng/ml

Row | Substance | IC50 (DU-145) | Cell survival rate (DU-145; [1]) | Cell survival rate (DU-145; [2]) | Cell survival rate (DU-145; [3]) | Cell survival rate (DU-145; DU-145, concentration 1 ng/ml) | Cell survival rate (DU-145; [4]) | IC50 (LNCaP) | IC50 (A549) | IC50 (Hep 3B) | IC50 (Hep G2)
1 | verrucarin A | 0.02 ng/mL | 94.33% | 72.31% | 21.01% | 16.99% | 16.96% | 2.85 ng/mL | 1.12 ng/mL | 2.31 ng/mL | 10.21 ng/mL
2 | verrucarin J | 0.28 ng/mL | 100.21% | 101.30% | 81.11% | 19.93% | 20.36% | 0.31 ng/mL | 2.34 ng/mL | 3.12 ng/mL | 13.31 ng/mL
